Measured values from several laboratories, pooled; numbers as filed in NIAID ChemDB.

Common to all: tests in culture; agent: Mycobacterium tuberculosis

ECn: concentration that inhibits the pathogen or its effect by n%. Conditions beyond the fields shown may differ between rows. An empty or dashed field is not shown. MIC bound: limit read from a one-dose screen. A number after MIC or MFC names an inhibition level or a share of isolates. a–b is a range or a potency band. Percent inhibition refers to the dose given; in toxicity tests it is the harm to the cells.

| SMILES | strain | read by | measure | dose | value |
|---|---|---|---|---|---|
| CC1=C(C(=O)Nc2ccc(F)c(Cl)c2)C(c2ccccc2S(=O)(=O)[O-])C(C(=O)Nc2ccc(F)c(Cl)c2)=C(C)N1 | H37Rv | - | MIC | - | >6.25 µg/mL |
| O=C(c1ccncc1)N1N=C(c2cccs2)CC1(O)C(F)(F)F | RGH104 | - | MIC | - | >293 µM |
| CO[C@H]1/C=C/O[C@@]2(C)Oc3c(C)c(O)c4c(=O)c(c5oc6cc(N7CCN(CC(C)C)CC7)cc(=O)c6nc5c4c3=C2O)NC(=O)/C(C)=C\C=C\[C@H](C)[C@H](O)[C@@H](C)[C@@H](O)[C@@H](C)[C@H](OC(C)=O)[C@@H]1C | 2257 (rifampicin-susceptible) | - | MBC | - | 0.015 µg/mL |
| CCCCS(=O)(=O)Nc1ccc2[nH]c(C(=O)NCc3ccccc3)c(C)c2c1 | H37Rv | resazurin | MIC90 | - | 1.56 µM |
| N=c1nc(N)nc2c3cc(Br)ccc3nnn12 | H37Rv | BACTEC | MIC bound | - | >12.5 µg/mL |
| O=[N+]([O-])c1cccc2c(C3CCCCC3)cc(C3CCCCC3)nc12 | Ethambutol-resistant | - | MIC | - | 6.25 µg/mL |
| Cn1c(-c2ccc(/C=N/NC(=S)N/N=C/c3ccc(-c4c[n+]5ccsc5n4C)cc3)cc2)c[n+]2ccsc12.[Br-].[Br-] | H37Rv | BACTEC | MIC bound | - | >12.5 µg/mL |
| CC1=C(C(=O)Nc2cccc([N+](=O)[O-])c2)C(c2cccc(Br)c2)C(C(=O)Nc2cccc([N+](=O)[O-])c2)=C(C)N1 | H37Rv | - | MIC | - | >6.25 µg/mL |
| Oc1ccc(Cl)cc1C(=S)NCc1ccc(Br)cc1 | My 331/88 | - | MIC | - | 1 µg/mL |
| Cc1ccc(C2=NN(C(=O)c3ccncc3)C(O)(C(F)(F)F)C2)cc1 | RGH103 | - | MIC | - | 287 µM |
| Cc1nc2nc3n(c(=O)c2nc1C)CCCS3 | H37Rv | BACTEC | inhibition | 12.5 µg/mL | 18% |
| O=C(N/N=C/c1ccc(F)cc1)c1ccc(F)cc1 | H37Rv | - | inhibition | 6.25 µg/mL | 0% |
| CCCCS(=O)(=O)Nc1ccc2[nH]c(C(=O)N(C)C)c(C)c2c1 | H37Rv | resazurin | MIC90 | - | 6.25 µM |
| Cc1nn(C(=O)Cc2ccccc2)c2c1C(c1ccccc1)SC(N)=N2 | H37Rv | BACTEC | MIC bound | - | >12.5 µg/mL |
| COc1ccc(/C=N/NC(=O)c2nc(C3C4CC5CC(C4)CC3C5)[nH]c2C2C3CC4CC(C3)CC2C4)cc1 | H37Rv | - | MIC | - | >6.25 µg/mL |
| O=[N+]([O-])c1cn2c(n1)OC[C@@H](OCc1ccc(OC(F)(F)F)cc1)C2 | H37Rv | - | MIC | - | 0.024 µg/mL |
| CCCOc1c(C(C)=O)cc(N)c2nccc(CC)c12 | H37Rv | - | inhibition | 6.25 µg/mL | 0% |
| Cc1ccc(Nc2c(C#N)[n+]([O-])c3cc(Cl)ccc3[n+]2[O-])cc1 | H37Rv | - | EC50 | - | <12.5 µg/mL |
| CCCCCCCCCNC1CC(=O)N(CCCCCCCCC)C1=O | H37Rv | - | MIC | - | ≤20 µg/mL |
| O=C(O)/C=C/c1cnc[nH]1 | H37Rv | - | inhibition | 6.25 µg/mL | 22% |
| CCOC(=O)N1CCN(c2ccc(C3CC(c4ccc([N+](=O)[O-])o4)=NO3)cc2)CC1 | UT29 | - | MIC | - | 0.012 µg/mL |
| CCCCCCCOc1c(C(C)=O)cc([N+](=O)[O-])c2nccc(CC)c12 | Ethambutol-resistant | - | MIC | - | 6.25 µg/mL |
| CC(=O)O.COC(=O)C1C(O)C(C)C(O)C(C)/C=C\C=C(\C)C(=O)Nc2c(C)c(OC(C)=O)c3c(c2O)C(=O)C(C)=C2OCOC(=C23)/C(C)=C\C(C)(O)C(O)C(C)C1O | H37Rv | BACTEC | MIC | - | ≥12.5 µg/mL |
| Cc1cccc(O)c1C(=O)NCc1ccccc1 | My 331/88 | - | MIC | - | 62.5 µg/mL |
| COc1cc2c(cc1OC)-c1c(oc3c(CCC(C)C)c(O)ccc3c1=O)CO2 | H37Rv | BACTEC | inhibition | 12.5 µg/mL | 14% |
| COc1cc(/C=N/NC(=O)c2ccc(F)cc2)ccc1O | H37Rv | - | EC50 | - | >6.25 µg/mL |
| CCCCCCCCCN1C(=O)CC(SCCNC(=O)c2ccc(C)cc2)C1=O | H37Ra | - | MIC | - | ≤20 µg/mL |
| O=C(CCN1CCC23c4c5ccc(O)c4OC2C(O)C=CC3C1C5)c1ccccc1 | H37Rv | BACTEC | MIC bound | - | >12.5 µg/mL |
| O=[N+]([O-])c1cccc2ccc(C3CCCC3)nc12 | H37Rv | - | inhibition | 6.25 µg/mL | 20% |
| NC(=O)NOCC1NC(=O)C(CONC(N)=O)NC1=O | H37Rv | BACTEC | MIC bound | - | >12.5 µg/mL |
| CN(C)CC=C(c1ccc(Br)cc1)c1ccc(-c2ccc(Br)cc2)cc1 | ALI 909 | - | MIC | - | 17 µg/mL |
| O=C(N/N=C/c1cccs1)c1ccccc1 | H37Rv | - | inhibition | 6.25 µg/mL | 9% |
| O=C(CN1C(=O)CCC1=O)Nc1ccc(N2CCCCC2)cc1 | H37Rv | - | MIC | - | ≤20 µg/mL |
| O=C(O)c1nc(C2CCCC2)[nH]c1C1CCCC1 | H37Rv | - | inhibition | 6.25 µg/mL | 0% |
| CN(C)CC=C(c1ccccc1)c1ccc(-c2ccc(Br)cc2)cc1 | ALI 452 | - | MIC | - | ≤5 µg/mL |
| COc1ccccc1N1CCCSC1=Nc1ccccc1 | H37Rv | BACTEC | inhibition | 12.5 µg/mL | 79% |
| CCCCCS(=O)(=O)Nc1ccc2[nH]c(C(=O)NC(C)(C)c3ccccc3)c(C)c2c1 | H37Rv | resazurin | MIC90 | - | 6.25 µM |
| C/C=C1/C(=O)O[C@]23C=C[C@@H]4C(C(=O)OC)=CO[C@H](O[C@@H]12)[C@@H]43 | MDR4 clinical isolate | MTT | MBC | - | 3.7 µg/mL |
| O=C(O)c1cnc(C2CCCC2)[nH]1 | H37Rv | - | MIC | - | >6.25 µg/mL |
| CC1COc2c(N3CCN(C(N)=NC#N)CC3)c(F)cc3c(=O)c(C(=O)O)cn1c23 | H27Rv | broth dilution | MBC | - | 0.625 µg/mL |
| C[C@]1(COc2ccc(N3CCC(Oc4ccc(OC(F)(F)F)cc4)CC3)cc2)Cn2cc([N+](=O)[O-])nc2O1 | 36 strains (rifampicin-resistant) | - | MIC90 | - | 0.012 µg/mL |
| O=C(c1ccncc1)N1N=C(c2ccco2)CC1(O)C(Cl)(Cl)Cl | RGH101 | - | MIC | - | >268 µM |
| Cc1ccsc1C(=S)Nc1ccc(Cl)c(C(=O)OC(C(C)C)C(C)C)c1 | H37Rv | BACTEC | MIC bound | - | >12.5 µg/mL |
| CCCCCCCCN1C(=O)CC(C)C1=O | H37Rv | - | MIC | - | ≤20 µg/mL |
| CC(=O)c1cc([N+](=O)[O-])c2nc(C(C)C)ccc2c1C(C)C | Ethambutol-resistant | - | MIC | - | 12.5 µg/mL |
| CC(=O)NNC(=O)c1ccccn1 | H37Rv | BACTEC | inhibition | 12.5 µg/mL | 33% |
| O=C(N/N=C/c1cccs1)c1ccc([N+](=O)[O-])cc1 | H37Rv | - | EC50 | - | >6.25 µg/mL |
| NNC(=O)c1ccncc1 | PMH29:kasA | - | MIC | - | 0.125 µg/mL |
| Cc1cccc(CNC(=S)c2ccccc2O)c1 | My 331/88 | - | MIC | - | 0.5 µg/mL |
| COc1ccc(OC)c(N=Nc2c(O)c3ccccc3[nH]c2=O)c1 | H37Rv | BACTEC | MIC bound | - | >12.5 µg/mL |
| C[C@]1(COc2ccc(N3CCC(Oc4ccc(OC(F)(F)F)cc4)CC3)cc2)Cn2cc([N+](=O)[O-])nc2O1 | ATCC 35838 (H37RV-R-R) | - | MIC | - | 0.006 µg/mL |
| O=[N+]([O-])c1ccc(C2=NOC(c3ccc(N4CCN(Cc5ccccc5)CC4)cc3)C2)o1 | UT26 | - | MIC | - | 0.006 µg/mL |
| CN(C)C/C=C(\c1ccc(Cl)cc1)c1ccc(-c2ccc(Br)cc2)cc1 | H37Ra | - | MIC | - | 5 µg/mL |
| N/C(=C\c1ccc(/C=C(/NC(=O)c2ccccc2)c2nc3c([nH]2)C(=O)c2ccccc2C3=O)cc1)c1nc2c([nH]1)C(=O)c1ccccc1C2=O | H37Rv | BACTEC | MIC bound | - | >12.5 µg/mL |
| Cc1ccc(CNC(=S)c2ccc([N+](=O)[O-])cc2O)cc1 | My 331/88 | - | MIC | - | 32 µg/mL |
| CC1=C(C(=O)Nc2ccccc2)C(c2cccc([N+](=O)[O-])c2)C(C(=O)Nc2ccc(Cl)cc2)=C(C)N1 | H37Rv | - | MIC | - | >6.25 µg/mL |
| O=C(N/N=C/c1ccncc1)c1ccc(F)cc1 | H37Rv | - | inhibition | 6.25 µg/mL | 13% |
| CN(C)C/C=C(\c1ccc(N)cc1)c1ccc(-c2ccc(Br)cc2)cc1 | ALI 3236 | - | MIC | - | 19.5 µg/mL |
| COc1ccc(C2CC(=Nc3cccc(Cl)c3)C(=O)N2c2cccc(Cl)c2)cc1 | H37Rv | BACTEC | MIC bound | - | >12.8 µg/mL |
| NC(=O)c1cnccn1 | TB189 | - | MIC | - | <25 µg/mL |
| CN(C)C/C=C(/c1ccccc1)c1ccc(-c2ccc(Br)cc2)cc1 | ALI 544 | - | MIC | - | 20 µg/mL |
| CC(=O)c1cc([N+](=O)[O-])c2nc(C(C)(C)C)ccc2c1C(C)(C)C | H37Rv | - | inhibition | 6.25 µg/mL | 15% |
| O=C(O)c1[nH]c(=O)[nH]c(=O)c1F | H37Rv | BACTEC | MIC bound | - | ≤12.5 µg/mL |
| O=C(N/N=C/c1ccccc1)c1cnc(C2C3CC4CC(C3)CC2C4)[nH]1 | H37Rv | - | MIC | - | >6.25 µg/mL |
| CN(C)C/C=C(/c1ccc(Br)cc1)c1ccc(-c2ccc(Br)cc2)cc1 | H37Rv | - | MIC | - | 8.5 µg/mL |
| CCCCCCCCN1C(=O)C=C(C)C1=O | H37Rv | - | MIC | - | ≤20 µg/mL |
| COc1ccc(/C=N/NC(=O)c2cnc(C3C4CC5CC(C4)CC3C5)[nH]2)cc1 | H37Rv | - | MIC | - | >6.25 µg/mL |
| CO[C@H]1/C=C/O[C@@]2(C)Oc3c(C)c(O)c4c(O)c(c(/C=N/N5CCN(C6CCCC6)CC5)c(O)c4c3C2=O)NC(=O)/C(C)=C\C=C\[C@H](C)[C@H](O)[C@@H](C)[C@@H](O)[C@@H](C)[C@H](OC(C)=O)[C@@H]1C | L405 | - | MIC | - | 0.1 µg/mL |
| NC1=NNC2(C(N)=N1)c1ccccc1-c1ccccc12 | H37Rv | BACTEC | inhibition | 12.5 µg/mL | 61% |
| CCCCCCCCN1C(=O)CC(SCC(N)C(=O)O)C1=O | Clinical isolate (isoniazid-resistant) | - | MIC | - | ≤20 µg/mL |
| CC1=C(C(=O)Nc2cccc(C(F)(F)F)c2)C(c2cccc(Br)c2)C(C(=O)Nc2cccc(C(F)(F)F)c2)=C(C)N1 | H37Rv | - | MIC | - | >6.25 µg/mL |
| NC[C@@H]1O[C@H](O[C@H]2[C@@H](O)[C@H](O[C@@H]3[C@@H](O)[C@H](N)C[C@H](N)[C@H]3O[C@H]3O[C@H](CO)[C@@H](O)C[C@H]3N)O[C@@H]2CO)[C@H](N)[C@@H](O)[C@@H]1O[C@H]1O[C@H](CO)[C@@H](O)[C@H](O)[C@@H]1O | H37Rv (viomycin-resistant) | - | EC50 | - | 25–50 µg/mL |
| O=C(N/N=C/c1ccc(O)cc1)c1ccc(F)cc1 | H37Rv | - | EC50 | - | >6.25 µg/mL |
| CC1=NN(C(=O)c2ccncc2)C(O)(C(F)(F)F)C1 | RGH103 | - | MIC | - | 366.3 µM |
| COC(=O)CNC(=O)c1cnc(C(C)(C)C)[nH]1 | H37Rv | - | MIC | - | >6.25 µg/mL |
| CCC1CCC2c3c([nH]c4ccccc34)C3C(=O)N(c4ccc(OC)cc4)C(=O)C3C2C1 | H37Rv | BACTEC | inhibition | 12.5 µg/mL | 82% |
| CCN(CC)c1nc2c(s1)c1c(O)c3c(O)c(C)c4c(c32)C(=O)[C@@](C)(O/C=C/[C@H](OC)[C@@H](C)[C@@H](OC(C)=O)[C@H](C)[C@H](O)[C@H](C)[C@@H](O)[C@@H](C)/C=C/C=C(/C)C(=O)N1)O4 | 131-4 | - | MBC | - | 0.5 µg/mL |
| CC1=CC(=O)N(c2ccc(N3CCCCC3)cc2)C1=O | Clinical isolate (isoniazid-resistant) | - | MIC | - | ≤20 µg/mL |
| Cc1ccc(-[n+]2c3cc(N)c(C)cc3nc3cc(C)c(Nc4ccccc4)cc32)cc1.O=S(=O)(O)O | H37Rv | BACTEC | inhibition | 12.5 µg/mL | 89% |
| CCCCCCCCCCN1C(=O)C=CC1=O | H37Ra | - | MIC | - | ≤20 µg/mL |
| O=C(O)c1cc(N=C2C=CC(=C(c3ccccc3)c3ccc(Nc4ccc(Cl)c(C(=O)O)c4)cc3)C=C2)ccc1Cl | H37Rv | BACTEC | MIC bound | - | >12.5 µg/mL |
| CCCCS(=O)(=O)Nc1ccc2[nH]c(C(=O)NC3CCCC3)c(C)c2c1 | H37Rv | resazurin | MIC90 | - | 6.25 µM |
| O=C(CCN1C(=O)CCC1=O)Nc1ccc(N2CCCCC2)cc1 | Clinical isolate (isoniazid-resistant) | - | MIC | - | ≤20 µg/mL |
| CCOC(=O)/C(C)=C(/[O-])C(=O)OCC.[Na+] | H37Rv | BACTEC | MIC bound | - | >12.5 µg/mL |
| CCCCS(=O)(=O)Nc1ccc2[nH]c(C(=O)N(C)Cc3ccccc3)c(C)c2c1 | H37Rv | resazurin | MIC90 | - | 12.5 µM |